Experimental findings from PubChem BioAssay AID1376 (SRMLSC, 2008) are described below.

Sequences of proteins named here, by UniProt entry; tags and fusion partners are left off. A change or cut given only in a name is not applied to a line headed by its entry.
UniProt P9WMN3: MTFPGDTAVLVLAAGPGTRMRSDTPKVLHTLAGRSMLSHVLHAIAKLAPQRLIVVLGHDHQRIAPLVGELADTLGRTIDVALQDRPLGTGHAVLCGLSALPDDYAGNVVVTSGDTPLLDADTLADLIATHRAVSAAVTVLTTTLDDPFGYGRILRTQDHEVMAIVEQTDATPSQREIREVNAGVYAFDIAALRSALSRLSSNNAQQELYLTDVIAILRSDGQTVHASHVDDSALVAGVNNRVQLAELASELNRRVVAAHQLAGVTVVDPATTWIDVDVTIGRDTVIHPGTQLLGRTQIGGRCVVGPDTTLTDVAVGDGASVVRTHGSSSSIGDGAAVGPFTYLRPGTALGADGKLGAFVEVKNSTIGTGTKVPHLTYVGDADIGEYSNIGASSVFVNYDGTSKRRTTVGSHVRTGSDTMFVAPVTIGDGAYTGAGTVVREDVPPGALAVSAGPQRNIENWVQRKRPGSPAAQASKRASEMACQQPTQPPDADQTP

Each structure is given as a SMILES string. The list shows a part of the results, in another mix than the full data. Results with a measured potency or affinity are listed apart. The source made the active and inactive calls. Cut-off read from the data, not from the text of the source: active = inhibition above about 13%; inconclusive = no clear call, values can overlap the other calls; inactive = below that.

The target of this assay is Bifunctional protein GlmU (Mycobacterium tuberculosis (strain ATCC 25618 / H37Rv)) (UniProt P9WMN3). Description: inhibition of mycobacterial GlmU enzyme – biochemical, glucosamine-1-phosphate acetyltransferase (AID 1376).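 Note: 0% = complete reaction with vehicle and 100% = reaction without substrate.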 The following applies: M. tuberculosis GlmU acetyltransferase enzyme assay; stronger effect = higher value;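 tested at 30 µM in the primary screen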.
For the compound `COc1ccc(C2=NCC(CBr)S2)cc1` (stereo not drawn), the inhibition is inactive: 7.41%.

`Cc1ccc(NP(=O)(Oc2ccccc2)Oc2ccccc2)nc1`: the inhibition is inactive: 0.11%.

As to `O=[N+]([O-])c1cc([N+](=O)[O-])c(CCNc2ccccc2)c([N+](=O)[O-])c1`, the inhibition is inactive: 0.7%.

Consider `CCc1nc2c(n1)c1c(non1O)c1c2no[n+]1[O-]`, for which the inhibition is inactive: 2.27%.

For `CC(=O)N1C2C3N(C(C)=O)C1C1N(C(C)=O)C(C(N1C(C)=O)N3C(C)=O)N2C(C)=O`, the inhibition is inactive: -0.34%.

Consider `O=[N+]([O-])c1cccc2n[nH]nc12`, for which the inhibition is inactive: 0.76%.

`CCN(/C(=N/P(=O)(N1CCOCC1)N1CCOCC1)N1CCOCC1)c1ccc(OC)cc1`: the inhibition was inactive: -2.93%.

Take `Nc1ccc([As](=O)(O)c2ccc(N)cc2)cc1`: the inhibition was inactive: -0.73%.

In the case of `C[N+]1=C2C=CC=CC=C2SC12C([N+](=O)[O-])=CC([N+](=O)[O-])=C[C-]2[N+](=O)[O-]` (stereo not drawn), the inhibition was inactive: -1.86%.

With `CC1CCN(C(=O)Oc2c(Cl)cc(Cl)c3cccnc23)CC1`, the inhibition is inactive: -3.23%.

As for `CC(C)=N/N=C(\N)N[N+](=O)[O-]`, the inhibition was inactive: -1.73%.

On to `CN(C)C(=O)OCCc1n(C)cc[n+]1C`, for which the inhibition is inactive: 1.98%.

In the case of `O=C(Nc1cc([As](=O)(O)O)ccc1O)c1ccccc1`, the inhibition was inactive: 2.33%.

Turning to `O=[N+]([O-])c1ncn(CCn2ncnc2[N+](=O)[O-])n1`, the inhibition was inactive: 3.44%.

Regarding `CC(C)(C)C(=O)NC(Sc1ccncn1)C(Cl)(Cl)Cl` (stereo not drawn), the inhibition was inactive: 11.1%.

Consider `O=C(O)CNc1ccc([As](=O)(O)O)cc1`, for which the inhibition was inactive: 0.39%.

Consider `O=[N+]([O-])c1cccc(NC2=NCC(CBr)S2)c1` (stereo not drawn), for which the inhibition is inactive: 4.92%.

For `O=P(Nc1nc2ccc(Cl)cc2s1)(c1ccccc1)c1ccccc1`, the inhibition is inactive: 0.23%.

`CC(=O)Nc1ccc([As](=O)(O)O)cc1`: the inhibition was inactive: 5.01%.

For `Cc1cc(SC(NC(=O)c2ccc(F)cc2)C(Cl)(Cl)Cl)ncn1` (stereo not drawn), the inhibition was inactive: 9.96%.

For the compound `CCOP(=O)(Nc1ccccc1)OCC`, the inhibition is inactive: 0.74%.

Regarding `CN(C(=O)Cc1ccc(Cl)c(Cl)c1)[C@H]1CCCC[C@@H]1N1CCCC1`, the inhibition is inactive: 0.05%.

For `Cc1ccc(NP(=O)(Oc2ccccc2F)Oc2ccccc2F)nc1`, the inhibition was inactive: 0.13%.

Consider `Nc1cccc2ccc([As](=O)(O)O)cc12`, for which the inhibition was inactive: 3.47%.

On to `CCN(N=Nc1nonc1N)c1nonc1N`, for which the inhibition was inactive: 1.73%.

For the compound `Cc1ccc(N/C(=N/P(=O)(N2CCOCC2)N2CCOCC2)N2CCOCC2)cc1`, the inhibition was inactive: -2.29%.

`NC(=O)c1cc([N+](=O)[O-])cc([N+](=O)[O-])c1N`: the inhibition was inactive: 2.42%.

As to `CN1CCCC(OC(=O)C(c2ccccc2)c2ccccc2)C1` (stereo not drawn), the inhibition is inactive: -0.13%.

Turning to `Clc1ccc(Cl)c(NC2=NCC(CBr)S2)c1` (stereo not drawn), the inhibition was inactive: -0.3%.

Take `COc1ccccc1OP(=O)(Nc1ccc(C)cn1)Oc1ccccc1OC`: the inhibition is inactive: -1.07%.

Turning to `Cc1ccc(OP(=O)(Nc2nccs2)Oc2ccc(C)cc2)cc1`, the inhibition was inactive: 1.37%.

As for `Oc1ccccc1CNc1ccccn1`, the inhibition was inactive: -3.52%.

With `O=C(NC(Sc1ccncn1)C(Cl)(Cl)Cl)c1ccccc1` (stereo not drawn), the inhibition was inactive: 9.6%.

Regarding `Cc1c2non([O-])c-2c(C)[n+](=O)[n+]1[O-]`, the inhibition is inactive: -3.11%.

In the case of `Nc1cc(N)c2nonc2c1[N+](=O)[O-]`, the inhibition was inactive: 0.09%.

With `CC(C)CC(=O)NC(Sc1ccc(Cl)cc1)C(Cl)(Cl)Cl` (stereo not drawn), the inhibition was inactive: -0.17%.

Turning to `O=P1(Nc2nc3ccc(Cl)cc3s2)COc2ccccc2O1` (stereo not drawn), the inhibition is inactive: -2.18%.

Take `CCOc1ccc(C2=NCC(CBr)S2)cc1` (stereo not drawn): the inhibition was inactive: -1.9%.

On to `CC(C)(C)C(=O)NC(Sc1ccccc1)C(Cl)(Cl)Cl` (stereo not drawn), for which the inhibition is inactive: 0.98%.

Regarding `C[C@H]1OP(=O)(Oc2ccccc2)C[C@@H]2O[C@@H]21` (stereo partly drawn), the inhibition is inactive: -0.79%.

As for `C[C@@H]1C=CCP(=O)(Oc2ccccc2)O1` (stereo partly drawn), the inhibition was inactive: 0.46%.

For `CC(=O)Nc1ccc([As](=O)(O)O)c(O)c1`, the inhibition is inactive: 1.23%.

`CC(=O)Nc1ccc(Oc2c([N+](=O)[O-])cc([N+](=O)[O-])cc2[N+](=O)[O-])cc1`: the inhibition is inactive: -0.03%.

In the case of `c1ccc(-c2nn[nH]n2)c(-c2nn[nH]n2)c1`, the inhibition is inactive: -2.24%.

Take `CCOC(=O)NC(Sc1ccccc1)C(Cl)(Cl)Cl` (stereo not drawn): the inhibition was inactive: 2.33%.

As for `Cc1ccc(NP(=O)(Oc2cccc(C)c2)Oc2cccc(C)c2)nc1`, the inhibition is inactive: -1.06%.

`O=C(NC1CCS(=O)(=O)C1)NP(=S)(Oc1ccccc1)Oc1ccccc1` (stereo not drawn): the inhibition was inactive: 4.3%.

For `CCNC(=S)/N=C(\N)N[N+](=O)[O-]`, the inhibition is inactive: -32.9%.

`CCC(=O)N1C2C3N(C(=O)CC)C1C1N(C(=O)CC)C(C(N1C(=O)CC)N3C(=O)CC)N2C(=O)CC`: the inhibition was inactive: -0.02%.

For `COC(=O)c1cc2c(s1)N=C(c1ccccc1)N(C)P2(=O)N1CCOCC1` (stereo not drawn), the inhibition is inactive: -0.85%.

As to `Cc1ccc(OP(=O)(Nc2ccccn2)Oc2ccc(C)cc2)cc1`, the inhibition is inactive: 3.99%.

Regarding `CC(=O)NC(SC(=S)N(CC(C)C)CC(C)C)C(Cl)(Cl)Cl` (stereo not drawn), the inhibition is inactive: -3.8%.

Take `Cc1ccccc1OP(=O)(Nc1ccccn1)Oc1ccccc1C`: the inhibition is inactive: 3.4%.

For `O=c1c2cc([N+](=O)[O-])ccc2[nH]c2c([N+](=O)[O-])cc([N+](=O)[O-])cc12`, the inhibition is inactive: 9.56%.

`CN(C)C(=O)Oc1noc2ccccc12`: the inhibition was inactive: -3.42%.

For the compound `O=P(Nc1ccccn1)(c1ccc(Br)cc1)c1ccc(Br)cc1`, the inhibition is inactive: -0.45%.

As for `O=P(Nc1nc2ccccc2s1)(c1ccccc1)c1ccccc1`, the inhibition is inactive: 2.49%.

As for `C[C@H]1OP(=O)(Oc2ccccc2)[C@H](O)[C@H](O)[C@H]1N=[N+]=[N-]` (stereo partly drawn), the inhibition was inactive: -2.53%.

`O=[As](O)(c1ccccc1)c1ccc(O)cc1`: the inhibition is inactive: 1.07%.

For `O=[N+]([O-])c1ncn(CCn2cnc([N+](=O)[O-])n2)n1`, the inhibition is inactive: -6.65%.

Consider `CC(=O)NC(SC(=S)N(C)C)C(Cl)(Cl)Cl` (stereo not drawn), for which the inhibition is inactive: 4.81%.

On to `O=C(OC1CN2CCC1CC2)c1cccc(Cl)c1` (stereo not drawn), for which the inhibition is inactive: 0.54%.

As to `C(Cc1nn[nH]n1)Cc1nn[nH]n1`, the inhibition was inactive: 3.28%.

`Nc1ccc([As](=O)(O)c2ccc([N+](=O)[O-])cc2)cc1`: the inhibition was inactive: 6.19%.

`O=P(Nc1nccs1)(c1ccccc1)c1ccccc1`: the inhibition was inactive: -1.64%.

As to `CC(C)C(=O)NC(Sc1ccccc1)C(Cl)(Cl)Cl` (stereo not drawn), the inhibition was inactive: 0.2%.

In the case of `c1nnnn1CCn1cnnn1`, the inhibition was inactive: -1.01%.

For the compound `O=P1(Nc2ccccn2)COc2ccccc2OC1`, the inhibition is inactive: 1%.

In the case of `CCOP(=O)(Nc1ccc(C)cn1)OCC`, the inhibition is inactive: 3.83%.

With `CN(CCCl)Cc1cc(Cl)c(NC2=NCCN2)c(Cl)c1`, the inhibition was inactive: 1.33%.

For the compound `Clc1n[nH]nc1-c1nn[nH][15n]1`, the inhibition is inactive: 1.85%.

Turning to `CC(C)(C)C(=O)NC(Sc1ncccn1)C(Cl)(Cl)Cl` (stereo not drawn), the inhibition was inactive: -3.62%.

For the compound `CN(C(=O)Cc1ccc(Cl)c(Cl)c1)[C@@H]1CCCC[C@H]1N1CCCC1`, the inhibition is inactive: -6.88%.

Regarding `CC(C)/C=N\N=C(\N)N[N+](=O)[O-]`, the inhibition is inactive: 0.62%.

With `O=[As](O)(c1ccccc1Br)c1ccccc1Br`, the inhibition is inactive: 8.78%.

For `CC1(CBr)Cn2c(nc3ccccc3c2=O)S1` (stereo not drawn), the inhibition was inactive: 3.12%.

Regarding `Cc1nn(-c2ccccc2)c2c1P(=O)(N1CCOCC1)N(C)C(c1ccccc1)=N2` (stereo not drawn), the inhibition was inactive: 9.83%.

With `CC1CCC(C(C)C)C(OP(=O)(Nc2ccccn2)c2ccccc2)C1` (stereo not drawn), the inhibition was inactive: -2.19%.

As to `CN(C)C1(CNC(=O)c2ccc(S(C)(=O)=O)cc2)CCCCC1`, the inhibition was inactive: -0.2%.

Regarding `O=C(/C=C/c1ccccc1)OC1CN2CCC1CC2` (stereo not drawn), the inhibition is inactive: -5%.

In the case of `O=P1(Nc2ncccn2)COc2ccccc2OC1`, the inhibition was inactive: 1.08%.

Turning to `Nc1cccc([As](=O)(O)c2ccccc2)c1`, the inhibition was inactive: 3.76%.

In the case of `O=[As](O)(c1cccs1)c1cccs1`, the inhibition was inactive: 0.6%.

Turning to `Cc1ccc(OCC(=O)OC2CN3CCC2CC3)cc1` (stereo not drawn), the inhibition is inactive: -4.66%.

For the compound `O=P1(Nc2ccc(Br)cn2)COc2ccccc2OC1`, the inhibition was inactive: 4.09%.

In the case of `CCOP1(=S)c2c(C)nn(CCC#N)c2N=C(c2ccccc2F)N1C` (stereo not drawn), the inhibition is inactive: 1.57%.

As for `O=P(Nc1nccs1)(Oc1ccccc1)Oc1ccccc1`, the inhibition is inactive: -4.41%.

On to `O=P(Nc1nccs1)(c1ccccc1)c1nc2ccccc2s1` (stereo not drawn), for which the inhibition is inactive: 4.81%.

As to `CS(=O)(=O)c1cc([N+](=O)[O-])c2no[n+]([O-])c2c1`, the inhibition was inactive: -3.47%.

`O=C(O)COc1ccc([As](=O)(O)O)cc1[N+](=O)[O-]`: the inhibition was inactive: -4.82%.

`Nc1ccccc1[As](=O)(O)c1ccccc1`: the inhibition is inactive: 4.97%.

As for `NC(=O)Nc1ccc([As](=O)(O)O)cc1`, the inhibition was inactive: 10.3%.

For the compound `CN(C(=O)Cc1ccccc1)[C@@H]1CC[C@]2(CCCO2)C[C@H]1N1CCCC1`, the inhibition is inactive: 3.84%.

Consider `CCOP1(=S)c2c(C)nn(CCC#N)c2N=C(c2ccc(F)cc2)N1C` (stereo not drawn), for which the inhibition was inactive: 6.46%.

Turning to `O=[N+]([O-])c1ccc2c(c1)nnn2O`, the inhibition is inactive: 4.4%.

In the case of `CN(C(=O)Cc1ccc(Cl)c(Cl)c1)[C@H]1CC[C@@]2(CCCO2)C[C@@H]1N1CCCC1`, the inhibition is inactive: -9.11%.

Take `O=C(OC1CN2CCC1CC2)c1ccc(Cl)cc1` (stereo not drawn): the inhibition was inactive: 2.84%.

On to `O=[As](O)(O)c1cccnc1`, for which the inhibition is inactive: 1.65%.

For the compound `COc1cc(C(=O)NCC2(N3CCOCC3)CCCCC2)cc(Cl)c1OC(C)C`, the inhibition was inactive: 2.12%.

Turning to `Cc1cccc(OCC(=O)OC2CN3CCC2CC3)c1` (stereo not drawn), the inhibition is inactive: -0.16%.

Turning to `O=[As](O)(c1cccc(O)c1)c1cccc(O)c1`, the inhibition is inactive: 0.23%.

For `Nc1cccc2c([As](=O)(O)O)cccc12`, the inhibition was inactive: 2.82%.

Consider `Cc1ccc(NCCc2c([N+](=O)[O-])cc([N+](=O)[O-])cc2[N+](=O)[O-])cc1`, for which the inhibition was inactive: 1.69%.

As usually defined, the inhibition is the relative decrease from the control value, in per cent.
